# Source: patent US20170158997A1
# Experiments:
# dog hepatocytes = conditions: read-out: IC50 values of cell viability, static plate cultures
substance,measurement,setting,value
aflatoxin B1,pIC50,dog hepatocytes,8.00
same,pIC50,human hepatocytes,6.28

# pIC50: −log10 of the molar value.
